{"source": "PubChem BioAssay AID1259414 (Drosophila RNAi Screening Center, 2018)", "assay": "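Genome-wide screen for host control of endosymbiont load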 (primary screen)", "cells": "Drosophila JW18 cells infected with Wolbachia", "reagents": "long dsRNA against Drosophila genes, 0.25 µg dsRNA per well of a 384-well plate", "timing": "5 days", "challenge": "cells persistently infected with Wolbachia before knock-down; no added drug", "read-out": "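Automated imaging of bacterial rRNA staining divided by host cell count, reported as plate-normalised robust z-score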", "direction": "Wolbachia per cell robust z: higher = more Wolbachia per host cell than the plate typical", "call rule": "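Active if absolute robust z reaches 1.5 in two or more of three replicates, leaving out multi- or no-target dsRNAs, genes unexpressed in JW18 and A1 wells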", "note": "In all, the deposit lists about 24,000 reagents; below is an unselected part of those that have a named target and a result. In the full data, about 1,210 (5%) got an active call. 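Inactive calls also include excluded dsRNAs with several or no targets, genes unexpressed in JW18, and well A1, regardless of score.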 Names joined by + are all predicted targets of the reagent."}
{"target": "CG15800", "amplicon": "DRSC04271", "Wolbachia per cell robust z, rep 1": 0.822, "Wolbachia per cell robust z, rep 2": 1.39, "Wolbachia per cell robust z, rep 3": 0.733, "outcome": "inactive"}
{"target": "CG6985", "amplicon": "DRSC16164", "Wolbachia per cell robust z, rep 1": -0.495, "Wolbachia per cell robust z, rep 2": -5.66, "Wolbachia per cell robust z, rep 3": -0.802, "outcome": "inactive"}
{"target": "CG6985", "amplicon": "DRSC24923", "Wolbachia per cell robust z, rep 1": -0.0123, "Wolbachia per cell robust z, rep 2": 0.964, "Wolbachia per cell robust z, rep 3": 0.161, "outcome": "inactive"}
{"target": "CG6428", "amplicon": "DRSC18402", "Wolbachia per cell robust z, rep 1": 0.483, "Wolbachia per cell robust z, rep 2": -0.969, "Wolbachia per cell robust z, rep 3": -1.38, "outcome": "inactive"}
{"target": "CG33920", "amplicon": "DRSC37813", "Wolbachia per cell robust z, rep 1": 0.715, "Wolbachia per cell robust z, rep 2": 0.201, "Wolbachia per cell robust z, rep 3": 1.35, "outcome": "inactive"}
{"target": "CG17260", "amplicon": "DRSC00497", "Wolbachia per cell robust z, rep 1": 0.137, "Wolbachia per cell robust z, rep 2": 0.636, "Wolbachia per cell robust z, rep 3": -0.482, "outcome": "inactive"}
{"target": "CG17260", "amplicon": "DRSC29415", "Wolbachia per cell robust z, rep 1": -0.508, "Wolbachia per cell robust z, rep 2": -0.85, "Wolbachia per cell robust z, rep 3": 0.212, "outcome": "inactive"}
{"target": "dls (daedalus on 3)", "amplicon": "DRSC37821", "Wolbachia per cell robust z, rep 1": -0.187, "Wolbachia per cell robust z, rep 2": -0.343, "Wolbachia per cell robust z, rep 3": -2, "outcome": "inactive"}

Continued (2 carried over from the part before).
{"target": "CG17260", "amplicon": "DRSC29415", "Wolbachia per cell robust z, rep 1": -0.508, "Wolbachia per cell robust z, rep 2": -0.85, "Wolbachia per cell robust z, rep 3": 0.212, "outcome": "inactive"}
{"target": "dls (daedalus on 3)", "amplicon": "DRSC37821", "Wolbachia per cell robust z, rep 1": -0.187, "Wolbachia per cell robust z, rep 2": -0.343, "Wolbachia per cell robust z, rep 3": -2, "outcome": "inactive"}
{"target": "fd96Ca (forkhead domain 96Ca)", "amplicon": "DRSC16946", "Wolbachia per cell robust z, rep 1": -0.0518, "Wolbachia per cell robust z, rep 2": 0.00106, "Wolbachia per cell robust z, rep 3": 1.21, "outcome": "inactive"}
{"target": "fd96Ca (forkhead domain 96Ca)", "amplicon": "DRSC23974", "Wolbachia per cell robust z, rep 1": -0.456, "Wolbachia per cell robust z, rep 2": 0.493, "Wolbachia per cell robust z, rep 3": 1.42, "outcome": "inactive"}
{"target": "dx (deltex)", "amplicon": "DRSC18767", "Wolbachia per cell robust z, rep 1": -0.00895, "Wolbachia per cell robust z, rep 2": -0.175, "Wolbachia per cell robust z, rep 3": -0.868, "outcome": "inactive"}
{"target": "dx (deltex)", "amplicon": "DRSC24880", "Wolbachia per cell robust z, rep 1": -0.112, "Wolbachia per cell robust z, rep 2": 0.215, "Wolbachia per cell robust z, rep 3": -0.279, "outcome": "inactive"}
{"target": "CG43317", "amplicon": "DRSC15000", "Wolbachia per cell robust z, rep 1": 1.02, "Wolbachia per cell robust z, rep 2": 0.585, "Wolbachia per cell robust z, rep 3": -0.093, "outcome": "inactive"}
{"target": "CG34177 + CG34178", "amplicon": "DRSC00351", "Wolbachia per cell robust z, rep 1": -0.139, "Wolbachia per cell robust z, rep 2": 0.437, "Wolbachia per cell robust z, rep 3": -0.355, "outcome": "inactive"}
{"target": "CG14147", "amplicon": "DRSC10149", "Wolbachia per cell robust z, rep 1": 0.0696, "Wolbachia per cell robust z, rep 2": 0.587, "Wolbachia per cell robust z, rep 3": 1.33, "outcome": "inactive"}
{"target": "Dscam2 (Down syndrome cell adhesion molecule 2)", "amplicon": "DRSC10198", "Wolbachia per cell robust z, rep 1": -1.06, "Wolbachia per cell robust z, rep 2": 0.0653, "Wolbachia per cell robust z, rep 3": 0.433, "outcome": "inactive"}
{"target": "Dscam2 (Down syndrome cell adhesion molecule 2)", "amplicon": "DRSC11018", "Wolbachia per cell robust z, rep 1": -5.37, "Wolbachia per cell robust z, rep 2": 1.76, "Wolbachia per cell robust z, rep 3": 1.28, "outcome": "inactive"}
{"target": "Dscam2 (Down syndrome cell adhesion molecule 2)", "amplicon": "DRSC11019", "Wolbachia per cell robust z, rep 1": -3.3, "Wolbachia per cell robust z, rep 2": 0.248, "Wolbachia per cell robust z, rep 3": 0.0325, "outcome": "inactive"}
{"target": "Dscam2 (Down syndrome cell adhesion molecule 2)", "amplicon": "DRSC22526", "Wolbachia per cell robust z, rep 1": 0.358, "Wolbachia per cell robust z, rep 2": 1.07, "Wolbachia per cell robust z, rep 3": 0.475, "outcome": "inactive"}
{"target": "Dscam2 (Down syndrome cell adhesion molecule 2)", "amplicon": "DRSC25787", "Wolbachia per cell robust z, rep 1": -1.21, "Wolbachia per cell robust z, rep 2": 0.0386, "Wolbachia per cell robust z, rep 3": -0.745, "outcome": "inactive"}
{"target": "Dscam2 (Down syndrome cell adhesion molecule 2)", "amplicon": "DRSC28220", "Wolbachia per cell robust z, rep 1": 0.684, "Wolbachia per cell robust z, rep 2": 0.0221, "Wolbachia per cell robust z, rep 3": 0.191, "outcome": "inactive"}
